Data on 2 molecules can be found in US4678799A, “1,2(1,4)-dimethyl-4(2)-(2-hydroxyethyl)-5-nitro-imidazole antiprotozoal agents with reduced mutagenicity” (Merck & Co., Inc., priority 1984, dated 1987).

One data set relates to T. foetus. The data set can be described thus: In vitro antiprotozoal activity against T. foetus. The data set is classed as cell-based. The conditions noted are these: ratio antiprotozoal activity/mutagenicity relative to known compound I. An excerpt: (§1) Several 5-nitroimidazoles have been tested for in vitro antiprotozoal activity against T. foetus, T. vaginalis, and G. lamblia.

The next data set relates to T. vaginalis. The data set can be described thus: In vitro antiprotozoal activity against T. vaginalis. The data set is classed as cell-based. The conditions noted are these: ratio antiprotozoal activity/mutagenicity relative to known compound I.
From the text: as §1

The structures appear in SMILES notation. Some results come without the dose or concentration used.

For the molecule `Cc1nc(CCO)n(C)c1[N+](=O)[O-]` [IV, 1,4-Dimethyl-2-(2-hydroxyethyl)-5-nitroimidazole], the “Efficacy Index T. foetus” value in the data set on T. foetus amounted to 24.6. The “Efficacy Index T. vaginalis” value in the data set on T. vaginalis came to 4.8.
The like results for `Cc1nc(CCO)c([N+](=O)[O-])n1C` [Compound V] were, in that order, 80.0 and 60.0.
